Patent EP3498273A1, “PHARMACEUTICAL COMPOSITION FOR MODULATING THE RESPONSE OF A GABA-A RECEPTOR” (Universität Wien, priority 2017, dated 2019)

Protein sequences, listed by entry. Tags and fused reporters are not part of them. Lines headed by an entry give the natural chain unless they say otherwise; changes in a name come on top.
UniProt P14867: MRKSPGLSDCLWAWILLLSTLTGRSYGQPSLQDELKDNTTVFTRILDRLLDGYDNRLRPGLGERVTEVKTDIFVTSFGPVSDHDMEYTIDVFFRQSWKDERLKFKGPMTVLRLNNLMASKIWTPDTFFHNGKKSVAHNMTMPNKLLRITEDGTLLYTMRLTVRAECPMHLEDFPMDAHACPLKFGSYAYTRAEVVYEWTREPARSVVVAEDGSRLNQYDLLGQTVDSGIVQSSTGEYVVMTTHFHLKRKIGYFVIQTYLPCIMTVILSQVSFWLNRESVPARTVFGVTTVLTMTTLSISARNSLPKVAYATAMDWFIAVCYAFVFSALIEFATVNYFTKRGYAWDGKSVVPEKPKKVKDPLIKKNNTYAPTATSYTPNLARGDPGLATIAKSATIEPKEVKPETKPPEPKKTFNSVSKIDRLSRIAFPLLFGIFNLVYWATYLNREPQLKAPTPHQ
UniProt P28472: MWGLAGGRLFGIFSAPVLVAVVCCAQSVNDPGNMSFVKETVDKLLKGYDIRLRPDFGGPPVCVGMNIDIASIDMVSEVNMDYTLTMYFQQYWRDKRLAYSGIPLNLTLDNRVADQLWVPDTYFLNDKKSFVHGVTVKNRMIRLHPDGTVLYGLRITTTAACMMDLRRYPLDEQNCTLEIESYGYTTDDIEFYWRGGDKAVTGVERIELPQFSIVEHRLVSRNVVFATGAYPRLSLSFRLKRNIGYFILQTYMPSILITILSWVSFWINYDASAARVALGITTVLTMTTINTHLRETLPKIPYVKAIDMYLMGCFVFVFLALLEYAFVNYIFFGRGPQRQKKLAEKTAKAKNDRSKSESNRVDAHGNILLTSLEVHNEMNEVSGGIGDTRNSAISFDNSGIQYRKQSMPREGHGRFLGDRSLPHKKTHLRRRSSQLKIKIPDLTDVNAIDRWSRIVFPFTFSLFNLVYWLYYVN

Biological target: GABAA receptors composed of α1β3γ2S subunits (Homo sapiens, UniProt P14867+P28472)
Experiment: Two-microelectrode voltage clamp: enhancement of GABA-induced chloride currents (IGABA) through receptors expressed in Xenopus laevis oocytes

`CC(=C(C#N)C#N)c1ccc(Cl)cc1Cl` was tested, and the “IGABA pot; % α1β3γ2s (30µM)” value (30 µM compound, co-applied with GABA EC3-7, mean ± SEM) was 1488 ± 140%, the “IGABA pot; % α1β3γ2s (100µM)” value (100 µM compound, co-applied with GABA EC3-7, mean ± SEM) was 1474 ± 153% and the EC50 (Table 6, α1β3γ2s, unit inferred) was 12.5 µM.
